Test results from patent US20190321329A1, “FORMULATION FOR THE TREATMENT OF ACNE” (published 2019).

What was measured:
[1] = system: Staphylococcus epidermidis (ATCC 12228); experiment: Time-Kill Procedure according to ASTM E2315, S. epidermidis; settings: 1 wt % suspension in water, contact 30 minutes, 2 and 14 hours, FIG. 2
[2] = system: Propionibacerium acnes (ATCC 6919); experiment: Time-Kill Procedure according to ASTM E2315, P. acnes; settings: 1 wt % suspension in water, contact 30 minutes, 2 and 14 hours, FIG. 3
[3] = system: Staphylococcus aureus (ATCC 6538); experiment: Time-Kill Procedure according to ASTM E2315, S. aureus; settings: 1 wt % suspension in water, contact 30 minutes, 2 and 14 hours, FIG. 1

For `Cc1ccc(C(=O)OOC(=O)c2ccc(C)cc2)cc1`, the “number of colony forming units (CFU) per ml, speed of action compared with BPO” value [1] was “acts quicker on these bacteria than dibenzoyl peroxide (BPO)”, the “number of colony forming units (CFU) per ml, speed of action compared with BPO” value [2] was “acts quicker on these bacteria than dibenzoyl peroxide (BPO)” and the “number of colony forming units (CFU) per ml, speed of action compared with BPO” value [3] was “acts quicker on these bacteria than dibenzoyl peroxide (BPO)”.
